Results of unrelated studies side by side (data: NIAID ChemDB).

All rows: tests on isolated targets

a–b is a range or a potency band. ICn: concentration for n% inhibition. Blank or dashed fields: not listed here. Percent inhibition refers to the dose given; in toxicity tests it is the harm to the cells. Lines come from different laboratories, so protocols vary.

| smiles | target | read-out | tested at | species | result |
|---|---|---|---|---|---|
| CCc1cc2c(C(=O)NC)c(-c3ccc(F)cc3)oc2cc1N(CCO)S(C)(=O)=O | Nonstructural protein 5B | IC50 | - | Hepatitis C virus | ≤0.5 µM |
| O=C(O)c1cnn2c(-c3ccccc3-c3ccc(Cl)cc3)ccnc12 | RNA-dependent RNA polymerase | IC50 | - | Hepatitis C virus | >10 µM |
| C[C@@H](C(=O)Nc1ccsc1-c1nc(C(=O)O)c(O)c(=O)[nH]1)c1ccccc1 | HCV polymerase | IC50 | - | Hepatitis C virus | <25 µM |
| COc1nc(Nc2ccc3[nH]ncc3c2)nc(N2CCOCC2)n1 | DNA polymerase | inhibition | 0.01 µg/mL | Hepatitis B virus | 30% |
| CC(C)Cc1c(-c2ccc(OCc3ccccc3)cc2)cnc2c(-c3nn[nH]n3)cnn12 | RNA-dependent RNA polymerase | IC50 | - | Hepatitis C virus | 1–10 µM |
| CC[C@@H](C=O)NC(=O)[C@@H]1C[C@@H](OCc2ccccc2)CN1C(=O)[C@@H](NC(=O)c1ccccc1Br)C(C)C | NS3 protease | Ki | - | Hepatitis C virus | 1–100 µM |
| COc1nc(Nc2ccc3cn[nH]c3c2)nc(N2CCCC2)n1 | DNA polymerase | inhibition | 0.01 µg/mL | Hepatitis B virus | 9% |
| CSCC[C@H](NC(=O)c1cnn2c(C3CCCCC3)c(-c3ccc(F)cc3)cnc12)C(=O)O | RNA-dependent RNA polymerase | IC50 | - | Hepatitis C virus | 1–10 µM |
| Cc1ccc(C(=O)N(c2cc(-c3ccccc3)sc2C(=O)O)C(C)C)c(Br)c1 | NS3 ATPase | IC50 | - | Hepatitis C virus | <5 µM |
| CC[C@@H](C=O)NC(=O)[C@@H]1C[C@@H](OC(=O)Nc2cccc(OC)c2)CN1C(=O)[C@@H](NC(=O)[C@@H](NC(=O)c1cnccn1)C(C)C)C(C)C | NS3 protease | Ki | - | Hepatitis C virus | 1–100 µM |
| O=C(O)c1sc(-c2ccccc2)cc1NC(=O)N1CCN(c2ccccc2Cl)CC1 | NS3 ATPase | IC50 | - | Hepatitis C virus | 5–20 µM |
| NC(=O)CC(NC(=O)c1ccc2c(c1)nc(-c1ccc3nc(-c4ccccc4)cnc3c1)n2C1CCCCC1)C(=O)O | NS5B polymerase | inhibition | 100 µM | Hepatitis C virus | 97.84% |
| COc1nc(Nc2ccc3cn[nH]c3c2)nc(N2CCOCC2)n1 | Nonstructural protein 5B | inhibition | 1 µg/mL | Hepatitis C virus | 41% |
| CS(=O)(=O)NC(=O)c1cnn2c(C3CCCCC3)c(-c3ccc(OCc4ccccc4)cc3)cnc12 | RNA-dependent RNA polymerase | IC50 | - | Hepatitis C virus | 1–10 µM |
| Cc1nn(-c2ccccc2)c(C)c1-c1ccc2cc(-c3nc4cc(C(=O)O)ccc4n3C3CCCCC3)ccc2n1 | NS5B polymerase | inhibition | 33 µM | Hepatitis C virus | 99.74% |
| Cc1nc(-c2ccc(S(=O)(=O)Nc3ccccc3-c3nc(C(=O)O)c(O)c(=O)[nH]3)s2)cs1 | HCV polymerase | IC50 | - | Hepatitis C virus | <100 µM |
| CC[C@@H](C=O)NC(=O)[C@@H]1C[C@@H](OCc2ccccc2)CN1C(=O)[C@@H](NC(=O)Cc1ccccc1[N+](=O)[O-])C(C)C | NS3 protease | Ki | - | Hepatitis C virus | >100 µM |
| COc1nc(NCCO)nc(Nc2ccc3cn[nH]c3c2)n1 | DNA polymerase | inhibition | 0.01 µg/mL | Hepatitis B virus | 20% |
| CC(C)N(C(=S)c1ccc(Cl)cc1Cl)c1cc(-c2ccccc2)sc1C(=O)O | NS3 ATPase | IC50 | - | Hepatitis C virus | <5 µM |
| CNC(=O)c1c(-c2ccc(F)cc2)oc2cc(N(C)S(C)(=O)=O)c(OCc3nccn3C)cc12 | Nonstructural protein 5B | IC50 | - | Hepatitis C virus | ≤0.5 µM |
| O=C(O)c1cc2ncc(-c3ccc(OCc4ccccc4)cc3)c(-c3ccccc3)n2n1 | RNA-dependent RNA polymerase | IC50 | - | Hepatitis C virus | 1–10 µM |
| COc1ccccc1CNC(=O)Nc1ccccc1-c1nc(C(=O)O)c(O)c(=O)[nH]1 | HCV polymerase | IC50 | - | Hepatitis C virus | <100 µM |
| CNC(=O)c1c(-c2ccc(F)cc2)oc2cc(N(C)S(C)(=O)=O)c(OCc3ccc(S(C)(=O)=O)cc3)cc12 | Nonstructural protein 5B | IC50 | - | Hepatitis C virus | ≤0.5 µM |
| CCN(CC)c1ncc(CN(C(=O)c2ccc(Cl)cc2Cl)c2cc(-c3ccccc3)sc2C(=O)O)s1 | NS3 ATPase | IC50 | - | Hepatitis C virus | <5 µM |
| CC[C@H](NC(=O)[C@H](CC(C)C)NC(=O)[C@@H](NC(=O)[C@@H](NC(=O)c1cnccn1)C(C)C)C(C)C)C(=O)C(=O)NCc1ccccc1 | NS3 protease | Ki | - | Hepatitis C virus | 1–100 µM |
| O=C(Nc1cscc1-c1nc(C(=O)O)c(O)c(=O)[nH]1)c1cccs1 | HCV polymerase | IC50 | - | Hepatitis C virus | <25 µM |
| CC(C1CCNCC1)N(C(=O)c1ccc(Cl)cc1Cl)c1cc(-c2ccccc2)sc1C(=O)O.O=C([O-])C(F)(F)F | NS3 ATPase | IC50 | - | Hepatitis C virus | <5 µM |
| COc1nc(NCCc2c[nH]c3ccccc23)nc(Nc2ccc3[nH]ncc3c2)n1 | DNA polymerase | inhibition | 0.01 µg/mL | Hepatitis B virus | 14% |
| CC[C@@H](C=O)NC(=O)[C@@H]1C[C@@H](OC(=O)C(C)C)CN1C(=O)[C@@H](NC(=O)[C@@H](NC(=O)c1cnccn1)C(C)C)C(C)C | NS3 protease | Ki | - | Hepatitis C virus | 1–100 µM |
| O=C(O)c1ccc2c(c1)nc(-c1ccc3nc(-c4cc5ccccc5o4)ccc3c1)n2C1CCCCC1 | NS5B polymerase | inhibition | 100 µM | Hepatitis C virus | 100% |
| O=C(O)c1cc2nc(-c3ccc(-c4ccc5c(c4)OCO5)cc3)c(C3CCCCC3)c(=O)n2[nH]1 | RNA-dependent RNA polymerase | IC50 | - | Hepatitis C virus | 1–10 µM |
| O=C(Cc1csc2ccccc12)Nc1cscc1-c1nc(C(=O)O)c(O)c(=O)[nH]1 | HCV polymerase | IC50 | - | Hepatitis C virus | <25 µM |
| O=C(O)c1ccc2c(c1)nc(-c1ccc3nc(-c4cn(-c5cccnc5Cl)c(=O)[nH]c4=O)ccc3c1)n2C1CCCCC1 | NS5B polymerase | inhibition | 33 µM | Hepatitis C virus | 95.34% |
| CNC(=O)c1c(-c2ccc(F)cc2)oc2cc(N(C)S(C)(=O)=O)c(OCc3ccc(C(=O)O)cc3)cc12 | Nonstructural protein 5B | IC50 | - | Hepatitis C virus | ≤0.5 µM |
| O=C(Cc1ccccc1)Nc1cccc(S(=O)(=O)NC(=O)Nc2cscc2-c2nc(C(=O)O)c(O)c(=O)[nH]2)c1 | HCV polymerase | IC50 | - | Hepatitis C virus | <25 µM |
| CN(C)CCNC(=O)c1ccc(-c2ccc(Cl)cc2)c(-c2ccc3cc(-c4nc5cc(C(=O)O)ccc5n4C4CCCCC4)ccc3n2)c1 | NS5B polymerase | inhibition | 100 µM | Hepatitis C virus | 99.95% |
| CCCC(=O)N(Cc1ccc(C(F)(F)F)cc1)c1cc(-c2ccccc2)sc1C(=O)O | NS3 ATPase | IC50 | - | Hepatitis C virus | 5–20 µM |
| Cc1cc(-c2nc3cc(C(=O)O)ccc3n2C2CCCCC2)cc2ccc(-c3ccccc3-c3ccc(Cl)cc3)nc12 | NS5B polymerase | inhibition | 33 µM | Hepatitis C virus | 97.75% |
| Cc1nn2c(C3CCCCC3)c(-c3ccc(F)cc3)cnc2c1C(=O)O | RNA-dependent RNA polymerase | IC50 | - | Hepatitis C virus | >10 µM |
| O=C(NC(Cc1c[nH]c2ccc(O)cc12)C(=O)O)c1ccc2c(c1)nc(-c1ccc3ncc(-c4ccccc4)cc3c1)n2C1CCCCC1 | NS5B polymerase | inhibition | 33 µM | Hepatitis C virus | 97.6% |
| O=C(O)c1nc(-c2ccccc2)[nH]c(=O)c1O | HCV polymerase | IC50 | - | Hepatitis C virus | <100 µM |
| Cc1ccc(CN(C(=O)C2CC2)c2cc(-c3ccccc3)sc2C(=O)O)cc1 | NS3 ATPase | IC50 | - | Hepatitis C virus | 5–20 µM |
| O=C(c1ccc2c(c1)nc(-c1cc3ccc(-c4ccccc4-c4ccc(Cl)cc4)nc3cc1F)n2C1CCCCC1)N1CCC(O)CC1 | NS5B polymerase | inhibition | 100 µM | Hepatitis C virus | 91.87% |

2 of the rows above, restated:

smiles,target,read-out,tested at,species,result
Cc1nn(-c2ccccc2)c(C)c1-c1ccc2cc(-c3nc4cc(C(=O)O)ccc4n3C3CCCCC3)ccc2n1,NS5B polymerase,inhibition,33 µM,Hepatitis C virus,99.74%
NC(=O)CC(NC(=O)c1ccc2c(c1)nc(-c1ccc3nc(-c4ccccc4)cnc3c1)n2C1CCCCC1)C(=O)O,NS5B polymerase,inhibition,100 µM,Hepatitis C virus,97.84%